Measured values from several laboratories, pooled; numbers as filed in NIAID ChemDB.

Shared fields: cytotoxicity tests; cells: VERO; endpoint: CC50

CCn: concentration that lowers growth or viability of the cells by n%.

structure	read by	value
CCC(=O)OCCOCn1cnc2c(=O)oc(N)nc21	-	540 µM
COc1ccc(C2CC(=O)Nc3nc(-c4ccc5ccccc5c4)nn32)cc1	-	>50 µg/mL
CCCCS(=O)(=O)Nc1ccc2[nH]c(C(=O)NCc3ccc(C)cc3)c(C)c2c1	resazurin	120 µM
CC#Cc1cn([C@@H]2O[C@H](COP(=O)(N[C@H](C(=O)OC)C(C)C)Oc3ccccc3)[C@@H](O)[C@@H]2O)c(=O)[nH]c1=O	-	>500 µM
CCCCS(=O)(=O)Nc1ccc2[nH]c(C(=O)NCc3cccc(F)c3)c(C)c2c1	resazurin	>120 µM
CCN1C=Cc2nccc3cc(OC)c(OC)c1c23	-	46.8 µM
c1ccc(-c2cc(N3CCCCC3)nc3nc(N4CCCCC4)ccc23)cc1	-	2.49 µg/mL
CC#Cc1cn([C@@H]2O[C@H](COP(=O)(O)OCCCCCCCCCCCC)[C@@H](O)[C@@H]2O)c(=O)[nH]c1=O	-	131 µM
Nc1nc2c(ncn2COCCO)c(=O)o1	-	1000 µM
CCCCS(=O)(=O)Nc1ccc2[nH]c(C(=O)NCc3ccccc3F)c(C)c2c1	resazurin	>120 µM
CC1(C)OC2C(O1)[C@@H](COS(=O)(=O)NC(=O)OC1CCCCC1)O[C@H]2n1ccc(=O)[nH]c1=O	-	619 µg/mL
COc1cc2ccnc3c2c(c1OS(C)(=O)=O)N(C)C=C3	-	3.5 µM
CCCCS(=O)(=O)Nc1ccc2[nH]c(C(=O)NCCCc3ccccc3)c(C)c2c1	resazurin	>120 µM
C[C@@]1(O)[C@H](O)[C@@H](COP(=O)(O)OP(=O)(O)OP(=O)(O)O)O[C@H]1n1ccc2c(N)ncnc21	-	250 µM
Cc1c(C#N)[nH]c2ccc(N3CCCC3)cc12	resazurin	220 µM
COc1c(O)c2c(c(O)c1CCOC(C)=O)CCC(OC)C2=O	-	0.33 µg/mL
O=C1CC(c2ccc([N+](=O)[O-])cc2)n2nc(-c3cccnc3)nc2N1	-	>50 µg/mL
CCCCS(=O)(=O)Nc1ccc2[nH]c(C(=O)NCc3ccccc3Cl)c(C)c2c1	resazurin	>110 µM
CCCCCCCCCCCCN1C=Cc2cc(OC)c(OC)c3c2c1cc[n+]3CCCCCCCCCCCC	-	<1 µM
CCCCS(=O)(=O)Nc1ccc2[nH]c(CNS(C)(=O)=O)c(C)c2c1	resazurin	>130 µM
CCCCN1C=Cc2nccc3cc(OC)c(OC)c1c23	-	11.8 µM
O=C1CC(c2ccc([N+](=O)[O-])cc2)n2nc(-c3ccc4ccccc4c3)nc2N1	-	>50 µg/mL
CC(C)N=c1cc2n(-c3ccc(Cl)cc3)c3ccccc3nc-2cc1Nc1ccc(Cl)cc1	MTT	0.54 µg/mL
CCCCCCC[C@H]1CC2CCC3=C(C(=O)OCCCCN=C(N)N)C(CCCCC)N=C(N1)N32	-	1.1 µM
O=C(OC1COC(=O)c2cc(O)c(O)c(O)c2-c2c(cc(O)c(O)c2O)C(=O)OC1C1OC(=O)c2cc(O)c(O)c(O)c2-c2c(O)c(O)c(O)c3c2C(=O)OC1C3O)c1cc(O)c(O)c(O)c1	-	89 µM
Cc1cn([C@@H]2O[C@H](CO)[C@@H](O)[C@@H]2F)c(=O)[nH]c1=O	-	40 µM
CCCCCCCCC[C@H]1CC2CCC3C(C(=O)OCCCCN=C(N)N)[C@@H](C)N=C(N1)N23	-	0.5 µM
CC1(C)OC2C(O1)[C@@H](COS(=O)(=O)NC(=O)OC(COCc1ccccc1)OCc1ccccc1)O[C@H]2n1ccc(=O)[nH]c1=O	-	369 µg/mL
CC(=O)O[C@H]1C[C@](C)(O)/C=C/C[C@@H](C)/C=C/[C@@]2(C)CC[C@@H](C(C)(C)OC(C)=O)[C@H]12	-	185 µM
CSCc1nc2ccccc2n1C(=O)OC(C)C	-	138 µM
CC#Cc1cn([C@@H]2O[C@H](COP(=O)(N[C@@H](C)C(=O)OC)Oc3ccccc3)[C@@H](O)[C@@H]2O)c(=O)[nH]c1=O	-	>500 µM
Nc1ccn([C@H]2S[C@@H](CO)C=C2F)c(=O)n1	-	>100 µM
CC#Cc1cn([C@@H]2O[C@H](COP(=O)(O)Oc3ccc(OC)cc3)[C@@H](O)[C@@H]2O)c(=O)[nH]c1=O	-	>500 µM
O=C1CC(c2ccccc2)n2nc(-c3ccncc3)nc2N1	-	>50 µg/mL
Cc1nn(-c2ccc(C(N)=O)c(NC3CCC(O)CC3)c2)c2c1C(=O)CC(C)(C)C2	MTT	27.06 µg/mL
CC#Cc1cn([C@@H]2O[C@H](COP(=O)(OCC)Oc3ccccc3)[C@@H](O)[C@@H]2O)c(=O)[nH]c1=O	-	>500 µM
Nc1nc(=O)n([C@@H]2CC[C@H](CO)O2)cc1F	-	33 µM
Nc1ccc(-n2cc(C(=O)O)c(=O)c3cc(F)c(N4CCNCC4)cc32)c(F)c1	-	>62.5 µg/mL
CCCc1nc2n(n1)C(c1ccc([N+](=O)[O-])cc1)CC(=O)N2	-	>50 µg/mL
CCCCCCCCS(=O)(=O)Oc1c(OC)cc2ccnc3c2c1N(C)C=C3	-	13.4 µM
CCCCCc1nc2n(n1)C(c1ccc(OC)cc1)CC(=O)N2	-	>50 µg/mL
CCN(CC)Cc1cc(N(c2cc(C)nc3cc(Cl)ccc23)S(=O)(=O)c2cc(C)cc(C)c2)ccc1O	resazurin	114 µg/mL
O=C1CC(c2ccccc2)n2nc(-c3ccc4ccccc4c3)nc2N1	-	>50 µg/mL
COC1CCC(N=c2cc3n(-c4ccc(Cl)cc4)c4ccccc4nc-3cc2Nc2cccnc2C)CC1	MTT	50.88 µg/mL
O=C1CC[C@H](O)c2cccc(O)c21	-	41.84 µg/mL
Nc1ncnc2c1ncn2[C@@H]1C[C@H](CO)[C@@H](O)[C@@H]1O	-	23 µM
COc1cc(O)c2c(c1)[C@H](O)[C@@H](O)CC2=O	-	26.35 µg/mL
O=C1CC(c2ccc([N+](=O)[O-])cc2)n2nc(C3CCCCC3)nc2N1	-	>50 µg/mL
COC1=CC(=O)c2c(cc(OC)c(C(C)C3=C(O)c4c(O)cc(O)cc4C(=O)C3=O)c2O)C1=O	-	4.38 µg/mL
CCCS(=O)(=O)Oc1c(OC)cc2ccnc3c2c1N(C)C=C3	-	9 µM
CC#Cc1cn([C@@H]2O[C@H](COP(=O)(O)Oc3ccccc3Cl)[C@@H](O)[C@@H]2O)c(=O)[nH]c1=O	-	305 µM
CCCCS(=O)(=O)Nc1ccc2[nH]c(CNC(C)=O)c(C)c2c1	resazurin	>150 µM
O=C(Nn1c(-c2ccccc2)ccc1-c1ccccc1)c1ccncc1	MTT	>100 µg/mL
Nc1nc(=O)n([C@@H]2O[C@H](CO)[C@@H](O)[C@@H]2F)cc1I	-	100 µM

The last 4 rows once more:

structure | read by | value
CC#Cc1cn([C@@H]2O[C@H](COP(=O)(O)Oc3ccccc3Cl)[C@@H](O)[C@@H]2O)c(=O)[nH]c1=O | - | 305 µM
CCCCS(=O)(=O)Nc1ccc2[nH]c(CNC(C)=O)c(C)c2c1 | resazurin | >150 µM
O=C(Nn1c(-c2ccccc2)ccc1-c1ccccc1)c1ccncc1 | MTT | >100 µg/mL
Nc1nc(=O)n([C@@H]2O[C@H](CO)[C@@H](O)[C@@H]2F)cc1I | - | 100 µM

Lines come from different laboratories, so protocols vary. An empty or dashed field is not shown.